PubChem BioAssay AID624099 – ICCB-Longwood, 2012

- Screen: 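Knock-downs relieving repression by E2 of an HPV18 LCR luciferase reporter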 (primary screen)
- Cells: human C33A cervical carcinoma cells (HPV-negative) stably expressing BPV1 E2 and an HPV18 LCR luciferase reporter
- Knock-down reagent: siRNA pool against human genes, 40 nM
- Duration: 72 h
- Read-out: 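Per-well luciferase luminescence, z-scored on each plate against the plate mean and SD with control wells left out, then averaged across three replicate plates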
- Reading the numbers: mean z-score and z-score: higher = stronger reporter signal, weaker E2 silencing
- Call rule: 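Hit if mean z-score reaches 2 and two or more of three replicate z-scores also reach 2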
Here is an unselected part of about 21,000 reagents. Over the whole deposit, 497 (2.4%) got an active call. 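Higher z means weaker E2 silencing; only reporter increases were scored, and knock-downs that hurt cell survival may mask genuine repressor factors.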

| gene | mean z-score | z-score, replicate A | z-score, replicate B | z-score, replicate C | call |
| --- | --- | --- | --- | --- | --- |
| FKBP1C (GeneID 642489) | 0.11 | 0.08 | 0.05 | 0.18 | inactive |
| LOC254027 (retired record) (GeneID 254027) | -0.05 | 0 | -0.16 | 0.01 | inactive |
| LOC391540 (retired record) (GeneID 391540) | 0.03 | -0.15 | 0.18 | 0.08 | inactive |
| DDIT3 (GeneID 1649) | -0.57 | -0.46 | -0.97 | -0.27 | inactive |
| PCDH9 (GeneID 5101) | -0.32 | -0.07 | -0.24 | -0.65 | inactive |
| APOL5 (GeneID 80831) | 0.27 | 0.18 | 0.16 | 0.47 | inactive |
| HTR3D (GeneID 200909) | 0.07 | -0.11 | 0.44 | -0.12 | inactive |
| KIF3C (GeneID 3797) | 1.27 | 1.32 | 1.23 | 1.27 | inactive |
| CLC (GeneID 1178) | 0.03 | -0.06 | 0.14 | -0.01 | inactive |
| LOC730218 (retired record) (GeneID 730218) | -0.1 | 0.22 | -0.32 | -0.19 | inactive |
| ATRNL1 (GeneID 26033) | -0.41 | -0.52 | -0.48 | -0.22 | inactive |
| TBC1D2B (GeneID 23102) | 0.3 | 0.63 | 0.04 | 0.24 | inactive |
| CRABP2 (GeneID 1382) | -0.14 | -0.46 | 0 | 0.04 | inactive |
| THAP10 (GeneID 56906) | 0.78 | 0.86 | 0.75 | 0.72 | inactive |
| RPSA (GeneID 3921) | -2.87 | -2.92 | -2.9 | -2.81 | inactive |
| KLK3 (GeneID 354) | 0.15 | 0.08 | 0.38 | -0.01 | inactive |
| MTA2 (GeneID 9219) | -0.79 | -0.64 | -0.65 | -1.1 | inactive |
| PRR25 (GeneID 388199) | 0.82 | 0.91 | 0.74 | 0.82 | inactive |
| CCT6B (GeneID 10693) | 2.04 | 2.16 | 2.16 | 1.81 | active |
| LOC402388 (retired record) (GeneID 402388) | -0.55 | -0.4 | -0.74 | -0.51 | inactive |
| ANXA9 (GeneID 8416) | -1.18 | -0.92 | -1.35 | -1.28 | inactive |
| CENPVL1 (GeneID 389857) | -0.87 | -1 | -0.51 | -1.11 | inactive |
| PHKA1P1 (GeneID 646780) | 3.86 | 3.94 | 3.84 | 3.81 | active |
| LOC401478 (GeneID 401478) | 0.53 | 0.6 | 0.51 | 0.48 | inactive |
| RASGEF1A (GeneID 221002) | 0.88 | 0.8 | 1.18 | 0.66 | inactive |
| WAS (GeneID 7454) | -0.35 | -0.23 | -0.62 | -0.19 | inactive |
| SUSD1 (GeneID 64420) | -0.7 | -0.6 | -0.8 | -0.7 | inactive |
| TNFRSF10B (GeneID 8795) | 0.7 | 0.8 | 0.64 | 0.65 | inactive |
| C12orf76 (GeneID 400073) | -1.44 | -1.74 | -1.2 | -1.39 | inactive |
| BMP2K (GeneID 55589) | -0.5 | -0.35 | -0.57 | -0.57 | inactive |
| RBMY1B (GeneID 378948) | -0.26 | 0.08 | -0.37 | -0.5 | inactive |
| SPACA5 (GeneID 389852) | 0.01 | 0 | 0.2 | -0.16 | inactive |
| DES (GeneID 1674) | 1.02 | 1.11 | 1.05 | 0.9 | inactive |
| SLC16A13 (GeneID 201232) | -1.2 | -1.14 | -1.37 | -1.09 | inactive |
| ZNF883 (GeneID 169834) | -0.07 | -0.01 | -0.13 | -0.08 | inactive |
| SERPINF1 (GeneID 5176) | 1.99 | 2.29 | 1.85 | 1.84 | inactive |
| PCDHB10 (GeneID 56126) | -0.54 | -0.56 | -0.5 | -0.56 | inactive |
| RAB11FIP2 (GeneID 22841) | -0.29 | -0.08 | -0.61 | -0.17 | inactive |
| TEX35 (GeneID 84066) | -1.16 | -1.22 | -1.21 | -1.04 | inactive |
| SCAND2P (GeneID 54581) | 0.17 | 0.34 | -0.08 | 0.26 | inactive |
| LOC285777 (retired record) (GeneID 285777) | -1.21 | -1.19 | -1.33 | -1.11 | inactive |
| FGD4 (GeneID 121512) | -0.73 | -0.8 | -0.57 | -0.81 | inactive |
| TFEB (GeneID 7942) | -0.64 | -0.76 | -0.41 | -0.75 | inactive |
| POC1B (GeneID 282809) | 1.05 | 3.44 | -0.1 | -0.17 | inactive |
| MYH16 (GeneID 84176) | -0.11 | -0.44 | 0.03 | 0.1 | inactive |
| ELOVL5 (GeneID 60481) | -1.24 | -1.33 | -1.26 | -1.13 | inactive |
| COX18 (GeneID 285521) | -0.61 | -0.86 | -0.46 | -0.52 | inactive |
| DEAF1 (GeneID 10522) | -0.72 | -0.87 | -0.8 | -0.49 | inactive |
| LOC440341 (retired record) (GeneID 440341) | -0.04 | -0.15 | 0.38 | -0.33 | inactive |
| SRRM2 (GeneID 23524) | 0.83 | 0.95 | 0.87 | 0.67 | inactive |
| ZNF41 (GeneID 7592) | 0.71 | 0.84 | 0.72 | 0.56 | inactive |
| ITGA7 (GeneID 3679) | -0.47 | -0.45 | -0.41 | -0.56 | inactive |
| FLI1 (GeneID 2313) | -0.47 | -0.45 | -0.5 | -0.45 | inactive |
| LOC139046 (retired record) (GeneID 139046) | 0.84 | 1.42 | 0.71 | 0.38 | inactive |
| MDN1 (GeneID 23195) | -1.28 | -1.3 | -1.47 | -1.06 | inactive |
| ZSWIM1 (GeneID 90204) | 0.87 | 1.3 | 1.17 | 0.15 | inactive |
| BCAN (GeneID 63827) | 2.08 | 2.05 | 2.29 | 1.91 | active |

9 neighbouring records already listed, quoted:
| gene | mean z-score | z-score, replicate A | z-score, replicate B | z-score, replicate C | call |
| --- | --- | --- | --- | --- | --- |
| MTA2 (GeneID 9219) | -0.79 | -0.64 | -0.65 | -1.1 | inactive |
| PRR25 (GeneID 388199) | 0.82 | 0.91 | 0.74 | 0.82 | inactive |
| CCT6B (GeneID 10693) | 2.04 | 2.16 | 2.16 | 1.81 | active |
| LOC402388 (retired record) (GeneID 402388) | -0.55 | -0.4 | -0.74 | -0.51 | inactive |
| ANXA9 (GeneID 8416) | -1.18 | -0.92 | -1.35 | -1.28 | inactive |
| CENPVL1 (GeneID 389857) | -0.87 | -1 | -0.51 | -1.11 | inactive |
| PHKA1P1 (GeneID 646780) | 3.86 | 3.94 | 3.84 | 3.81 | active |
| LOC401478 (GeneID 401478) | 0.53 | 0.6 | 0.51 | 0.48 | inactive |
| RASGEF1A (GeneID 221002) | 0.88 | 0.8 | 1.18 | 0.66 | inactive |
